A mixed list of measured activities; the numbers were collected in NIAID ChemDB.

All rows: tests in culture; agent: Toxoplasma gondii

Inhibition is in % at the dose shown (toxicity tests: loss of growth or viability). ECn is the concentration giving n% inhibition of infection, replication or growth. An empty or dashed field is not shown. Conditions beyond the fields shown may differ between rows. MIC50, MIC90 and the like: level of inhibition, or share of isolates inhibited.

SMILES | strain or isolate | dose | setting | read-out | cells | result
OC[C@H]1O[C@@H](n2cnc3c(SCc4ccc(Cl)cc4Cl)ncnc32)[C@H](O)[C@@H]1O | RH adenosine kinase-deficient | 25 µM | - | inhibition | - | 0%
CCc1ccc(C(=O)NS(=O)(=O)c2ccccc2O)cc1 | - | - | - | MIC50 | Human foreskin fibroblasts | >0.25 µM
O=C(NC(=S)Nc1cc(Cl)ccc1Cl)c1ccccc1COc1ccc(Cl)cc1 | RH beta-gal | - | - | EC50 | Human foreskin fibroblasts (HFF) | 98 µM
N#CC(c1ccc(Cl)cc1)c1c(Cl)cc(-n2ncc(=O)[nH]c2=O)cc1Cl | RH | 0.01 µg/mL | - | inhibition | - | 99.9%
CC[C@H]1OC(=O)[C@H](C)[C@@H](O[C@H]2C[C@@](C)(OC)[C@@H](O)[C@H](C)O2)[C@H](C)[C@@H](O[C@@H]2O[C@H](C)C[C@H](N(C)C)[C@H]2O)[C@](C)(O)C[C@@H](C)CN(C)[C@H](C)[C@@H](O)[C@]1(C)O | RH | 37.48 µg/mL | 20 h | inhibition | - | 90%
COc1ccc(OCc2ccccc2C(=O)NC(=S)Nc2cccc(Br)c2)cc1 | RH beta-gal | - | - | EC50 | Human foreskin fibroblasts (HFF) | 31 µM
CCc1ccc(C(=O)Nc2n[nH]c3ccccc23)cc1 | - | - | - | MIC50 | Human foreskin fibroblasts | >0.125 µM
COc1ccc(OCc2ccccc2C(=O)NC(=S)Nc2cccc(Cl)c2)cc1 | RH beta-gal | - | - | EC50 | Human foreskin fibroblasts (HFF) | 39 µM
O=C(NNC(=O)c1ccccc1O)c1ccc(OC(F)(F)F)cc1 | - | - | - | MIC50 | Human foreskin fibroblasts | >0.25 µM
COc1ccc(OCc2ccccc2C(=O)NC(=S)Nc2cccc3ccccc23)cc1 | RH beta-gal | - | - | EC50 | Human foreskin fibroblasts (HFF) | 100 µM
OC[C@H]1O[C@@H](n2cnc3c(SCc4ccc(OC(F)(F)F)cc4)ncnc32)[C@H](O)[C@@H]1O | RH adenosine kinase-deficient | 10 µM | - | inhibition | - | 0%
CCc1ccc(C(=O)NS(=O)(=O)c2ccccc2OC)cc1 | - | - | - | MIC90 | Human foreskin fibroblasts | >0.25 µM
CN1CCC(c2cc(-c3ccncc3)c(-c3ccc(F)cc3)[nH]2)CC1 | TG-PKG FLAG | - | - | EC50 | - | 0.3 µM
CCc1ccc(S(=O)(=O)NC(=O)c2ccccc2O)cc1 | - | - | - | MIC90 | Human foreskin fibroblasts | >0.25 µM
O=C(NC(=S)Nc1ccc(I)cc1)c1ccccc1COc1ccc(Cl)cc1 | RH beta-gal | - | - | EC50 | Human foreskin fibroblasts (HFF) | 104 µM

2 of the rows above, restated:

SMILES,strain or isolate,dose,setting,read-out,cells,result
CN1CCC(c2cc(-c3ccncc3)c(-c3ccc(F)cc3)[nH]2)CC1,TG-PKG FLAG,-,-,EC50,-,0.3 µM
OC[C@H]1O[C@@H](n2cnc3c(SCc4ccc(OC(F)(F)F)cc4)ncnc32)[C@H](O)[C@@H]1O,RH adenosine kinase-deficient,10 µM,-,inhibition,-,0%